Laboratory results from paper PMC9965349 (Viruses, 2023).

What was measured:
[1] = target: T1, porcine epidemic diarrhea virus S protein (PEDV-S1) (porcine epidemic diarrhea virus); assay: ELISA; conditions: both partners purified
T1 chain: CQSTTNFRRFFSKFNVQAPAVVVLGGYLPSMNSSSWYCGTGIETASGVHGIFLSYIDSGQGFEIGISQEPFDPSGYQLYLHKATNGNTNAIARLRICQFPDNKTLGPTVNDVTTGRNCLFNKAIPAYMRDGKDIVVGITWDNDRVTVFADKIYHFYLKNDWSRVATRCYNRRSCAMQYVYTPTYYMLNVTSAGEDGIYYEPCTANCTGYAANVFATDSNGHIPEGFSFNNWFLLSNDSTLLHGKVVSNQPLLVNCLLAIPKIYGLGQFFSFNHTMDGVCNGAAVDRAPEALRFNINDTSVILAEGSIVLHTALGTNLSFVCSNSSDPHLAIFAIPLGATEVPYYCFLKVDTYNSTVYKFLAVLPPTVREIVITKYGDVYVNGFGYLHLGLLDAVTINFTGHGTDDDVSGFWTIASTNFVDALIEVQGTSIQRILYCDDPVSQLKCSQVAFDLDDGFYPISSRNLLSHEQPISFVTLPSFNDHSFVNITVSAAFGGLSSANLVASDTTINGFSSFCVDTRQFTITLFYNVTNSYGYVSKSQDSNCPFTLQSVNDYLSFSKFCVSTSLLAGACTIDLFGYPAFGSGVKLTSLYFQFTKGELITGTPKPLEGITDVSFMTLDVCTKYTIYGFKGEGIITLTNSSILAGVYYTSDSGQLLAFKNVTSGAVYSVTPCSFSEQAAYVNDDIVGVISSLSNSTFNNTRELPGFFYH

[2] = target: T1, porcine epidemic diarrhea virus S …; assay: SPR; conditions: both partners purified

| Binder | P/N value [1] | Kd [2] [µM] |
| --- | --- | --- |
| FWKSKR [peptide 110766] | 167 |  |
| FWKHRIFWKHRI [peptide 111740] |  | 3.6 |
